Results on 43 compounds are retold here after PubChem BioAssay AID588549 (Broad Institute, 2011).

This is a selection; strong and weak results do not stand in their true shares. Some salts or complexes appear as unconnected parts, following the source record. Calls of active or inactive are those of the source. Rule as the data show it: active = inhibition above about 8.5% (passing the limit was not always enough); inconclusive = no clear call, values can overlap the other calls.

For the assay, the system named is Mycobacterium tuberculosis FadD28 fatty-acid-AMP ligase. The experiment in a line: inhibitors of FadD28 bisubstrate probe binding, primary screen, biochemical, fluorescence polarization, single point (AID 588549). The following applies: at 12.5 µM, stronger effect = higher value.
For the compound `COc1ccc(OP(C)(=O)Nc2cccc(Br)c2)cc1` (stereo not drawn), the inhibition is inactive: -4.1%.
Then `CN(C)CCOC(=O)C(O)(c1ccccc1)C1CCCCC1` (stereo not drawn), with inactive: 0.442%.
Turning to `COc1ccc(NP(C)(=O)Oc2ccccc2OC)cc1` (stereo not drawn), the inhibition was inactive: 0.626%.
For `Cc1c([N+](=O)[O-])cc([N+](=O)[O-])c(Br)c1[N+](=O)[O-]`, the inhibition is inactive: 0.639%.
As to `CCN(CC)CCCOC(=O)C(O)(c1ccccc1)C1CCCCC1` (stereo not drawn), the inhibition was inactive: -3.42%.
Then `CP(=O)(Nc1ccccc1)Oc1ccc(F)cc1` (stereo not drawn), with inactive: -0.0255%.
As to `O=[N+]([O-])c1cc([N+](=O)[O-])c(OC2CCCCC2O)c([N+](=O)[O-])c1` (stereo not drawn), the inhibition was inactive: 1.09%.
On to `CCCCCOc1ccc(NP(C)(=O)Oc2ccc(Cl)cc2Cl)cc1` (stereo not drawn), for which the inhibition is inactive: -5.07%.
On to `CCOC(=O)c1ccc(NP(C)(=O)Oc2ccc(F)cc2)cc1` (stereo not drawn), for which the inhibition was inactive: -2.34%.
With `COc1ccc(OP(C)(=O)Nc2ccc(SC(F)(F)F)cc2)cc1` (stereo not drawn), the inhibition was inactive: -7.98%.
As to `O=C(OC1CN2CCC1CC2)c1ccc([N+](=O)[O-])cc1` (stereo not drawn), the inhibition is inactive: 0.413%.
As for `O=C(OCCN1CCN(CCOCc2ccccc2)CC1)C(O)(c1ccccc1)c1ccccc1`, the inhibition was inactive: -0.458%.
Regarding `COc1ccc2c(c1O)-c1c(O)c(OC)cc3c1[C@H](C2)[N+](C)(C)CC3.O=[N+]([O-])c1cc([N+](=O)[O-])c([O-])c([N+](=O)[O-])c1[O-]`, the inhibition was inactive: -1.2%.
Then `O=[N+]([O-])c1cc([N+](=O)[O-])c(Nc2ccc(Cl)cc2)c([N+](=O)[O-])c1`, with inactive: -1.37%.
`CP(=O)(Nc1ccccc1F)Oc1ccccc1` (stereo not drawn): the inhibition is inactive: -0.115%.
`CC(C)c1ccc(OP(C)(=O)Nc2ccc(SC(F)(F)F)cc2)cc1` (stereo not drawn): the inhibition is inactive: -1.78%.
To `Cc1c(NP(C)(=O)Oc2ccc(C(C)C)cc2)c(=O)n(-c2ccccc2)n1C` (stereo not drawn) belongs inactive: -3.33%.
Consider `O=[N+]([O-])c1cc([N+](=O)[O-])c(Nc2ccccn2)c([N+](=O)[O-])c1`, for which the inhibition was inactive: -3.98%.
As to `COc1ccccc1OP(C)(=O)Nc1ccc(C)cc1C` (stereo not drawn), the inhibition was inactive: 0.45%.
For the compound `CP(=O)(Nc1ccccn1)Oc1ccccc1` (stereo not drawn), the inhibition is inactive: -0.724%.
`CCc1ccc(OP(C)(=O)O)cc1`: the inhibition was inactive: -0.19%.
Regarding `COc1ccccc1OP(C)(=O)Nc1ccc(Br)cc1` (stereo not drawn), the inhibition was inactive: 0.75%.
In the case of `COc1ccc(OP(C)(=O)Nc2ccccn2)cc1` (stereo not drawn), the inhibition was inactive: -0.194%.
Consider `CN(C)CCOC(=O)C(O)(c1ccccc1)C1CCCC1` (stereo not drawn), for which the inhibition is inactive: -5.05%.
For the compound `CP(=O)(Nc1ccc(Cl)cc1Cl)Oc1ccccc1` (stereo not drawn), the inhibition is inactive: -1.18%.
Turning to `CCCCCCCCCCCCCCCC1C[N+](C)(C)CCOP(C)(=O)O1` (stereo not drawn), the inhibition was inactive: -8.25%.
For `CP(=O)(OCCOc1ccccc1)OCCOc1ccccc1`, the inhibition was inactive: -0.501%.
To `Cc1cc(C)cc(OP(C)(=O)Nc2cccc(C(F)(F)F)c2)c1` (stereo not drawn) belongs inactive: -5.6%; to `O=C1C(O)=C([N+](=O)[O-])C(=O)C(O)=C1[N+](=O)[O-]`, inactive: -2.37%.
Then `COc1ccccc1OP(C)(=O)Nc1ccc(C)c(C)c1` (stereo not drawn), with inactive: -0.256%; and `COc1ccc(OP(C)(=O)Nc2ccccc2Br)cc1` (stereo not drawn), with inactive: -3.01%.
To `CCOC(=O)c1ccc(NP(C)(=O)Oc2ccc(Cl)cc2)cc1` (stereo not drawn) belongs inactive: -3.92%.
Consider `CP(=O)(OC12CC3CC(CC(C3)C1)C2)OC12CC3CC(CC(C3)C1)C2`, for which the inhibition is inactive: -2.9%.
To `COc1ccccc1OP(C)(=O)Nc1ccccc1Br` (stereo not drawn) belongs inactive: 0.062%; to `CC(C)(C)c1ccc(OP(C)(=O)O)cc1`, inactive: -0.027%; to `CP(=O)(Nc1ccc(Cl)cc1)Oc1ccc(F)cc1` (stereo not drawn), inactive: -1.27%.
In the case of `CN(C)C(=O)c1c([N+](=O)[O-])cc([N+](=O)[O-])cc1[N+](=O)[O-]`, the inhibition is inactive: -0.255%.
For the compound `COc1ccc(OP(C)(=O)Nc2ccc(Br)cc2)cc1` (stereo not drawn), the inhibition was inactive: -1.28%.
To `CCN(CC)CC(O)COC(=O)C(O)(c1ccccc1)C1CCCCC1` (stereo not drawn) belongs inactive: -1.01%; to `O=C(OCCCN1CCCC1)C(O)(c1ccccc1)C1CCCCC1` (stereo not drawn), inactive: -0.776%; to `COc1ccccc1OP(C)(=O)Nc1c(C)n(C)n(-c2ccccc2)c1=O` (stereo not drawn), inactive: -1.92%.
Regarding `CCc1ccc(OP(C)(=O)Nc2cccnc2)cc1` (stereo not drawn), the inhibition is inactive: 0.346%.
Then `CP(=O)(Oc1ccccc1)N1CCOC1=O` (stereo not drawn), with inactive: -3.56%.
